{
  "source": "paper PMC9982066",
  "about": "(PNAS Nexus, 2023)",
  "assay": "general procedure: Fmoc solid-phase peptide synthesis; Rink amide resin LS (100–200 mesh, 0.43 mmol/g); HATU",
  "conditions": "whole synthesis, scale of the general procedure 50–100 mg scale of the general procedure, bicyclic, sequence written open",
  "data": [
    {"substance": "TMA-Tyr-Pip-glu-Asp-nal-Gly-leu-Dap-4-ClPhe-nal-arg-Arg-arg-Arg-Dap", "values": [
      {"measurement": "outcome", "value": "The synthesis of peptide B7-131-6 failed"}
    ]}
  ]
}
